PubChem BioAssay AID1259414 – Drosophila RNAi Screening Center – 2018
Aim: 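Genome-wide screen for host control of endosymbiont load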 (primary screen). Cells: Drosophila JW18 cells infected with Wolbachia. Knock-down reagent: long dsRNA against Drosophila genes, 0.25 µg dsRNA per well of a 384-well plate. Time to read-out: 5 days. Conditions: cells persistently infected with Wolbachia before knock-down; no added drug. Measured: 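Imaged fluorescence in situ signal for Wolbachia 23S rRNA per DAPI-counted host cell, given as a robust z-score within each plate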. Scale: Wolbachia per cell robust z: higher = more Wolbachia per host cell than the plate typical. Hit rule: 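Hit when robust z is 1.5 or more, or -1.5 or less, in at least two of three replicates; excludes dsRNAs with several or no targets, genes not expressed in JW18 and well A1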.
The deposit covers about 24,000 reagents; below is a random part of those with a known target gene and a result. Of all reagents, about 1,210 (5%) got an active call. 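Inactive calls also include excluded dsRNAs with several or no targets, genes unexpressed in JW18, and well A1, regardless of score.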 A plus sign joins genes that one reagent is predicted to hit. Reagent sequences are not shown.

| gene | amplicon | Wolbachia per cell robust z, rep 1 | Wolbachia per cell robust z, rep 2 | Wolbachia per cell robust z, rep 3 | Outcome |
| --- | --- | --- | --- | --- | --- |
| Sox100B | DRSC15090 | -3.52 | -3.15 | 0.0984 | inactive |
| Sox100B | DRSC23485 | 0.923 | -0.722 | 1.16 | inactive |
| CG42346 | DRSC37923 | 1.38 | -0.105 | -0.683 | inactive |
| CG42346 | DRSC38786 | 1.28 | 1.99 | 0.239 | inactive |
| CG32650 | DRSC19899 | -3.43 | -5.62 | 1.41 | active |
| FucTD | DRSC08634 | 0.0682 | -1.33 | -0.355 | inactive |
| AttD | DRSC16272 | -0.0733 | 0.716 | -0.315 | inactive |
| CG34384 | DRSC12642 | 0.866 | 0.583 | 0.875 | inactive |
| CG34384 | DRSC14855 | -5.1 | 1.33 | -0.639 | inactive |
| CG34384 | DRSC15444 | -0.00594 | -0.426 | -1.84 | inactive |
| CG34384 | DRSC16575 | 0.162 | -0.685 | -2.28 | inactive |
| Oat | DRSC11043 | -0.0234 | 0.981 | -0.921 | inactive |
| xmas-1 (retired record) | DRSC20386 | -0.524 | -0.42 | -0.351 | inactive |
| xmas-1 (retired record) | DRSC24501 | 0.342 | -1.01 | -0.15 | inactive |
| Grl58a | DRSC04145 | -0.149 | 1.08 | 0.188 | inactive |
| Or22c | DRSC00766 | -0.313 | -1.13 | -0.881 | inactive |
| Or22c | DRSC26292 | 0.089 | -0.987 | -1.02 | inactive |
| CG13067 | DRSC09950 | -1.26 | 0.287 | -9.8 | inactive |
| CG13067 | DRSC41514 | -0.215 | -0.789 | -0.512 | inactive |
| CG42724 | DRSC12567 | 3.2 | -3.21 | 0.563 | inactive |
| CG42724 | DRSC22275 | -0.395 | -0.317 | -0.256 | inactive |
| CG42724 | DRSC25154 | -0.228 | -0.298 | 0.772 | inactive |
| CG42724 | DRSC30081 | 0.428 | -0.227 | -0.0557 | inactive |
| CG15561 | DRSC15100 | 0.521 | 0.564 | 0.844 | inactive |
| CG15561 | DRSC24085 | -0.426 | 0.176 | -0.58 | inactive |
| asRNA:CR43476 + CG42534 | DRSC23246 | -0.674 | -1.34 | -0.109 | inactive |
| CG12111 | DRSC17808 | 0.217 | -4.53 | 0.813 | inactive |
| CG12111 | DRSC26511 | 0.32 | -0.141 | -2.11 | inactive |
| CheB42a | DRSC22881 | -0.209 | 0.655 | 0.312 | inactive |
| CheB42a | DRSC41483 | -2 | -2.4 | 0.0347 | inactive |
| cnc | DRSC14676 | -0.83 | 1.06 | 0.425 | inactive |
| cnc | DRSC15289 | 0.716 | -0.841 | -0.105 | inactive |
| cnc | DRSC15600 | 0.383 | -0.053 | -0.638 | inactive |
| cnc | DRSC15601 | -2.11 | 0.563 | -3.78 | active |
| cnc | DRSC40709 | -1.28 | -2.91 | -2.51 | active |
| CG11839 | DRSC14398 | 0.826 | 0.432 | -0.108 | inactive |
| BTBD9 | DRSC18148 | 0.342 | -0.63 | -1.62 | inactive |
| BTBD9 | DRSC22371 | -0.863 | 0.596 | 0.437 | inactive |
| CG30467 | DRSC07097 | -1.11 | 0.66 | -1.95 | inactive |
| CG34462 | DRSC10768 | -0.277 | -1.29 | -1.11 | inactive |
| CG34462 | DRSC25352 | -0.438 | 1.91 | 1.45 | inactive |
| Hsdl2 | DRSC15839 | -0.765 | -0.446 | 1.17 | inactive |
| Hsdl2 | DRSC28075 | 0.87 | 0.681 | -0.661 | inactive |
| CG5693 | DRSC02878 | 0.0695 | 0.334 | 2.4 | inactive |
| Best1 | DRSC16909 | -0.112 | -2.16 | -5.94 | active |
| Best1 | DRSC26475 | 0.45 | -0.257 | -0.675 | inactive |
| Rh5 | DRSC03412 | -1.18 | -2.46 | -0.877 | inactive |
| Rh5 | DRSC25429 | 0.669 | -6.19 | -0.873 | inactive |
| ash2 | DRSC16902 | -0.593 | 0.504 | 0.711 | inactive |
| ND-B17 | DRSC01981 | 1.11 | 0.176 | 1.15 | inactive |
| hec | DRSC19895 | 0.194 | -1.34 | -0.283 | inactive |
| CG8405 | DRSC05599 | 0.421 | -9.5 | -0.3 | inactive |
| CG8405 | DRSC07166 | -3.05 | -0.911 | -1.71 | active |
| Np | DRSC06089 | -0.681 | -0.291 | -0.387 | inactive |
| Np | DRSC24989 | -1.76 | -2.02 | -1.34 | inactive |
| mthl2 | DRSC10287 | -0.233 | -1.01 | 1.07 | inactive |
| mthl2 | DRSC27003 | 0.581 | 0.333 | 0.289 | inactive |
| CG32270 + CG32269 | DRSC08195 | 0.0239 | 1.29 | 0.395 | inactive |
| ttm50 | DRSC18587 | -1.26 | -0.75 | 0.17 | inactive |
| CG13102 | DRSC02202 | -3.53 | -0.0976 | 0.823 | inactive |
| CG11267 | DRSC09833 | 0.248 | 1.02 | -0.949 | inactive |
| Rgl | DRSC11267 | 0.139 | -0.729 | 0.632 | inactive |
| Tsp42Ea | DRSC04982 | -3.58 | -0.308 | -0.204 | inactive |
| Tsp42Ea | DRSC06792 | -0.494 | -1.81 | -0.871 | inactive |
| CG11257 | DRSC06068 | 0.577 | 0.553 | 0.0303 | inactive |
| CG11257 | DRSC41517 | 0.163 | -2.79 | 0.167 | inactive |
| RpL19 | DRSC04649 | 2.73 | 1.42 | 0.901 | inactive |
| RpL19 | DRSC28391 | 0.83 | 2.03 | 2.23 | active |

Entries above marked active (6):
| gene | amplicon | Wolbachia per cell robust z, rep 1 | Wolbachia per cell robust z, rep 2 | Wolbachia per cell robust z, rep 3 | Outcome |
| --- | --- | --- | --- | --- | --- |
| CG32650 | DRSC19899 | -3.43 | -5.62 | 1.41 | active |
| cnc | DRSC15601 | -2.11 | 0.563 | -3.78 | active |
| cnc | DRSC40709 | -1.28 | -2.91 | -2.51 | active |
| Best1 | DRSC16909 | -0.112 | -2.16 | -5.94 | active |
| CG8405 | DRSC07166 | -3.05 | -0.911 | -1.71 | active |
| RpL19 | DRSC28391 | 0.83 | 2.03 | 2.23 | active |
